Anti-infective test results gathered from many reports (values: NIAID ChemDB through PubChem).

Shared fields: tests in culture; organism: Streptococcus pneumoniae; measure: MIC

Conditions beyond the fields shown may differ between rows.

compound | strain or isolate | value
CC[C@H]1OC(=O)[C@H](C)[C@@H](O[C@H]2C[C@@](C)(OC)[C@@H](O)[C@H](C)O2)[C@H](C)[C@@H](O[C@H]2O[C@@H](C)C[C@@H](N(C)C)[C@@H]2O)[C@](C)(O)C[C@@H](C)C(=O)[C@H](C)[C@@H](O)[C@]1(C)O | 49619 (erythromycin-susceptible) | <0.06 µg/mL
CC[C@H]1OC(=O)[C@H](C)C(=O)[C@H](C)[C@@H](O[C@@H]2O[C@H](C)C[C@H](N(C)C)[C@H]2O)[C@](C)(OC)C[C@@H](C)C(=O)[C@H](C)[C@H]2N(CCCCn3cnc(-c4cccnc4)c3)C(=O)O[C@]12C | 700906 (erythromycin A-resistant) | 0.25 µg/mL
CC[C@H]1OC(=O)[C@H](C)C(=O)[C@H](C)[C@@H](O[C@@H]2O[C@H](C)C[C@H](N(C)C)[C@H]2O)[C@@]2(C)C[C@@H](C)C(=NC(=O)CO)[C@H](C)C(OC/C(=C\C=C\c3ccccc3)CO2)[C@]1(C)O | 700906 (erythromycin-resistant-ERM) | 8 µg/mL
CC[C@H]1OC(=O)[C@H](C)C(=O)[C@H](C)[C@@H](O[C@@H]2O[C@H](C)C[C@H](N(C)C)[C@H]2O)[C@@]2(C)C[C@@H](C)C(=NC(C)=O)[C@H](C)[C@@H](OC/C(=N\Oc3ccc(-n4cccn4)nc3)CO2)[C@]1(C)O | 700906 (erythromycin-resistant-ERM) | <0.06 µg/mL
CC[C@H]1OC(=O)[C@H](C)C(=O)[C@H](C)[C@@H](O[C@@H]2O[C@H](C)C[C@H](N(C)C)[C@H]2O)[C@@]2(C)C[C@@H](C)C(=NC(C)=O)[C@H](C)[C@@H](OC/C(=N/OCc3ccc(-c4cccc(N)n4)s3)CO2)[C@]1(C)O | 7701 (erythromycin A-resistant) | 0.25 µg/mL
CC[C@H]1OC(=O)[C@H](C)C(=O)[C@H](C)[C@@H](O[C@@H]2O[C@H](C)C[C@H](N(C)C)[C@H]2O)[C@@]2(C)C[C@@H](C)C(=NC(C)=O)[C@H](C)[C@@H](OC/C(=N\OCc3ccc4nc(N)sc4c3)CO2)[C@]1(C)O | 700906 (erythromycin-resistant-ERM) | <0.06 µg/mL
CN1CCN(c2ccc3c(=O)c(C(=O)O)cn(C4CC4)c3c2)CC1 | D-1687 | 128 µg/mL
CC[C@H]1OC(=O)[C@H](C)C(=O)[C@H](C)[C@@H](O[C@@H]2O[C@H](C)C[C@H](N(C)C)[C@H]2O)[C@@]2(C)C[C@@H](C)C(=NC(C)=O)[C@H](C)[C@@H](OC/C(=N\OCC#Cc3ncccn3)CO2)[C@]1(C)O | 7701 (erythromycin-resistant-MEF) | 0.5 µg/mL
CC[C@H]1OC(=O)[C@H](C)C(=O)[C@H](C)[C@@H](O[C@@H]2O[C@H](C)C[C@H](N(C)C)[C@H]2O)[C@@]2(C)C[C@@H](C)C(=NC(C)=O)[C@H](C)C(OC/C(=C\C#Cc3ccccc3)CO2)[C@]1(C)O | 700906 (erythromycin-resistant-ERM) | 0.25 µg/mL
C[C@H]1NCc2cc(-c3c(F)cc4c(=O)c(C(=O)O)cn(C5CC5)c4c3OC(F)F)ccc21 | D-1687 | 0.06 µg/mL
CC[C@H]1OC(=O)[C@H](C)C(=O)[C@H](C)[C@@H](O[C@@H]2O[C@H](C)C[C@H](N(C)C)[C@H]2O)[C@@]2(C)C[C@@H](C)C(=NC(C)=O)[C@H](C)C(OC/C(=C\c3cnc4ccccc4c3)CO2)[C@]1(C)O | 700906 (erythromycin-resistant-ERM) | 4 µg/mL
NC1CCN(c2c(F)cc3c(=O)c(C(=O)O)cn(C4CC4)c3c2Cl)C1 | R6-G8 | 0.12 µg/mL
CC[C@H]1OC(=O)[C@@](C)(F)C(=O)[C@H](C)[C@@H](O[C@@H]2O[C@H](C)C[C@H](N(C)C)[C@H]2O)[C@@]2(C)C[C@@H](C)C(=NC(C)=O)[C@H](C)[C@@H](OC/C(=N\OCc3ccc(-c4nccs4)nc3)CO2)[C@]1(C)O | 7701 (erythromycin A-resistant) | <0.06 µg/mL
O=C(O)c1cn(C2CC2)c2cc(N3CCNCC3)ccc2c1=O | D-1687 | 64 µg/mL
CC[C@H]1OC(=O)[C@H](C)C(=O)[C@H](C)[C@@H](O[C@@H]2O[C@H](C)C[C@H](N(C)C)[C@H]2O)[C@@]2(C)C[C@@H](C)C(=NC(C)=O)[C@H](C)C(OC/C(=C\C=C\c3ccc(OC)cc3)CO2)[C@]1(C)O | 49619 (erythromycin-susceptible) | 0.125 µg/mL
CC[C@H]1OC(=O)[C@H](C)C(=O)[C@H](C)[C@@H](O[C@@H]2O[C@H](C)C[C@H](N(C)C)[C@H]2O)[C@@]2(C)C[C@@H](C)C(=NC(C)=O)[C@H](C)[C@@H](OC/C(=N\OCCCc3ccccc3)CO2)[C@]1(C)O | 49619 (erythromycin-susceptible) | <0.06 µg/mL
CC[C@H]1OC(=O)[C@@](C)(F)C(=O)[C@H](C)[C@@H](O[C@@H]2O[C@H](C)C[C@H](N(C)C)[C@H]2O)[C@@]2(C)C[C@@H](C)C(=NC(C)=O)[C@H](C)[C@@H](OC/C(=N\OCc3ccc(-c4cccc(N)n4)s3)CO2)[C@]1(C)O | 7701 (erythromycin A-resistant) | <0.06 µg/mL
C=C1COC2[C@@H](C)C(=NC(C)=O)[C@H](C)C[C@@](C)(OC1)[C@H](O[C@@H]1O[C@H](C)C[C@H](N(C)C)[C@H]1O)[C@@H](C)C(=O)[C@@H](C)C(=O)O[C@H](CC)[C@@]2(C)O | 7701 (erythromycin-resistant-MEF) | 0.5 µg/mL

The first 2 rows once more:

compound,strain or isolate,value
CC[C@H]1OC(=O)[C@H](C)[C@@H](O[C@H]2C[C@@](C)(OC)[C@@H](O)[C@H](C)O2)[C@H](C)[C@@H](O[C@H]2O[C@@H](C)C[C@@H](N(C)C)[C@@H]2O)[C@](C)(O)C[C@@H](C)C(=O)[C@H](C)[C@@H](O)[C@]1(C)O,49619 (erythromycin-susceptible),<0.06 µg/mL
CC[C@H]1OC(=O)[C@H](C)C(=O)[C@H](C)[C@@H](O[C@@H]2O[C@H](C)C[C@H](N(C)C)[C@H]2O)[C@](C)(OC)C[C@@H](C)C(=O)[C@H](C)[C@H]2N(CCCCn3cnc(-c4cccnc4)c3)C(=O)O[C@]12C,700906 (erythromycin A-resistant),0.25 µg/mL